The series concerns the target T1, VqsMt (truncated VqsM) (Pseudomonas aeruginosa PAO1) (UniProt Q9I1P2).
T1 sequence (looked up): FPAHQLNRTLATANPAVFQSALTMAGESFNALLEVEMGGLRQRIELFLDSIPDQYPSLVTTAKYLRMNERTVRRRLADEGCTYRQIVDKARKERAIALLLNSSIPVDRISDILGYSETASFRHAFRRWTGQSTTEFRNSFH
In words: EMSA. Conditions: 20 mM Tris-HCl pH 7.4, 50 mM KCl, 5 mM MgCl2, 10% glycerol, 3 ug/ml sheared salmon sperm DNA, room temperature 20 min, DNA 40-50 nM (footprint DNase I at 25 C), recombinant protein, residues 185-325, protein details: His6 (pMCSG7), probe letters rebuilt from the primers and the genome. (Mobility shift assays separate free from complexed probe on a gel.)

Negatives hold for the conditions tested. Tags and fusion partners may be left off the protein sequences shown.

Regarding “AATCAGCCAAATATGGATTCGGCACCCGATATCCGGCACGTTGTACGGCAGTCCGAGAATCCCGGCTTCCTGCCGAGGCGCATGCGCCCGTGCCCGACGACCCCTGAAGATGTCCAGTCAGCCCACTCTATAGAGTTGGCGTTGTGCCGGAAAGGCACATTTCAGTCCCACTTAACAATAGACCGCAGCGTTTGATGCACCTAGTACGATACCCGTCCTAGAGGGTAAGCAAACGTTTAAATGTGATCTAGATCACATTTTATGCGAACTGAATACCCAGTCACACCTGGTCCCCGGGTTCACTGTCGGCCCATC (double strand) [lasR promoter]”, the binding result (up to 1.0 uM) is given as “no binding”.

As for “ATTTCGGCGGCCTCCTGTCGCTCTTCCGCCGGCCCACAACCCGCCAACGCGATGGCCATAGCCAACGCCCCGATCCTTCCTATTGCACGCAAATCAGCCATGACACACCCGACCGTTGATTGAAAACGGATCGAATGGTACTTTTTCGAGCTAATTGAGTCAATATTGTCTCAAATGATCTTTTGACAGCTAATTCCTTTGGACGCGAGGCCAGTTTTCTGCACAATGCGCACAATCAGAAAAACCAACCGGGACCCATCGATGACCCTGATTTCCCATGACGAGCGACTCATCAAGGCGCTGGCAGTCGCT (double strand) [nfxB promoter]”, the binding result is “binds”.

Values taken from article PMC4176358.
